Key:
LasB = LasB (Pseudomonas aeruginosa, UniProt Q02RJ6); conditions: for IC50: read-out: LasB IC50, FRET-based assay; for fold drop in activity compared to the most active compounds of the isobutyl series: vs IC50 ∼ 25 nM
HEK293 = assay: MTT cytotoxicity assay, HEK293; conditions: after 48h at 100 µM
HepG2 = assay: MTT cytotoxicity assay, HepG2; conditions: after 48h at 100 µM
P. aeruginosa PA14 = assay: Bacterial growth inhibition assay; conditions: 100 µM compound concentration

Protein sequences, listed by entry. Tags and fused reporters are not part of them. Residues count along the entry.
UniProt Q02RJ6, 198-498 limits assumed: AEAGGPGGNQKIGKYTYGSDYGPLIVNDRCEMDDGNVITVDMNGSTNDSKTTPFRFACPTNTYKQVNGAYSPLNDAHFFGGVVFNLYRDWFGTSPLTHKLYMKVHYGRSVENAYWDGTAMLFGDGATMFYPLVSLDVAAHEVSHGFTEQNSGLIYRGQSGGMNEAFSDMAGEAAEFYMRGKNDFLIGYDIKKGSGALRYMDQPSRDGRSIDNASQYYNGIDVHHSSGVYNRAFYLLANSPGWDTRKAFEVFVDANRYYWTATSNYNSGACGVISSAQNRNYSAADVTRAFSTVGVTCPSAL

Row | SMILES | IC50 (LasB) [nM] | fold drop in activity compared to the most active compounds of the isobutyl series (LasB) [fold] | other results
1 | CC(C)CC(C(=O)Nc1cnc(Br)nc1)P(=O)(O)O (stereo not shown) | 380 | – | –
2 | CC(C)CC(C(=O)Nc1cnc(Cl)nc1)P(=O)(O)O (stereo not shown) | 500 | – | –
3 | CCCC(C(=O)Nc1ccc(Cl)c(Cl)c1)P(=O)(O)O (stereo not shown) | 2050 | – | –
4 | CC(C)CC(C(=O)Nc1ccc(S(=O)(=O)C(F)(F)F)cc1)P(=O)(O)O (stereo not shown) | 27.7 | – | % growth inhibition HEK293 (HEK293): 23 ± 0%; % growth inhibition HepG2 (HepG2): 12 ± 6%; Percent (%) growth inhibition of P. aeruginosa PA14 (P. aeruginosa PA14): < 10%
5 | COC(=O)c1ccc(NC(=O)C(CC(C)C)P(=O)(O)O)cn1 (stereo not shown) | 190 | 8 | –
6 | CC(C)CC(C(=O)Nc1ccc(Cl)nn1)P(=O)(O)O (stereo not shown) | – | 800 | –
